Results of unrelated studies side by side (data: NIAID ChemDB).

Shared fields: tests on isolated targets; agent: HIV-1; protein: Reverse transcriptase

ICn is the concentration giving n% inhibition. An empty or dashed field is not shown. Conditions beyond the fields shown may differ between rows.

CCOc1ccccc1N1CCN(C(=O)c2cc3ccccc3[nH]2)CC1 ; endpoint: IC50 ; changes: RT-Y181C ; strain or isolate: IIIB ; result: >50 µM
Cc1ccc(CCNC(=S)Nc2ccc(Br)cn2)cc1 ; endpoint: Ki ; method: nucleotide incorporation ; result: 0.25 µM
CCN1c2ncc(COc3ccccc3C(=O)OC)cc2C(=O)N(C)c2ccc(Cl)nc21 ; endpoint: IC50 ; method: nucleotide incorporation / radiometric ; strain or isolate: WT ; result: >1 µM
CN(C)c1ccc(C2SCC(=O)N2Cc2ccco2)cc1 ; endpoint: IC50 ; method: ELISA ; result: >10 µg/mL
CC(C)Nc1cccnc1N1CCN(C(=O)c2cc3cc4c(cc3[nH]2)OCO4)CC1 ; endpoint: IC50 ; method: RT activity ; strain or isolate: IIIB ; result: 0.23 µM
N#Cc1cccc(S(=O)(=O)c2cccc(N)c2C#N)c1 ; endpoint: IC50 ; result: 6 µM
Oc1ccc(CCNC(=S)Nc2ccc(Br)cn2)cc1 ; endpoint: Ki ; method: nucleotide incorporation ; result: 104 µM
CCN1c2ncc(COc3ccc(C(=O)OC)cc3)cc2C(=O)N(C)c2ccc(Cl)nc21 ; endpoint: IC50 ; method: nucleotide incorporation / radiometric ; changes: RT-Y181C ; result: >1 µM
Cc1cccc(N2C(=O)CSC2c2cccnc2)n1 ; endpoint: IC50 ; method: ELISA ; result: >10 µg/mL
N#Cc1c(N)cccc1S(=O)(=O)c1cc(Cl)ccc1Cl ; endpoint: IC50 ; result: 5.3 µM
Cc1cn([C@H]2C[C@H](N=[N+]=[N-])[C@@H](CP(=O)(O)OP(=O)(O)OP(=O)(O)O)O2)c(=O)[nH]c1=O ; endpoint: IC50 ; method: fluorescence ; result: >10 µM
Cc1cn([C@H]2CC[C@@H](COP(=O)(O)OP(=O)(O)OP(=O)(O)O)O2)c(=O)[nH]c1=O ; endpoint: Ki ; method: RT activity ; changes: RT-WT ; result: 0.02 µM
CCN1c2ncc(COc3cccc(OC)c3)cc2C(=O)N(C)c2ccc(Cl)nc21 ; endpoint: IC50 ; method: nucleotide incorporation / radiometric ; changes: RT-Y181C ; result: <1 µM
CCCCNC(=O)Oc1nsnc1-c1c(Cl)cccc1Cl ; endpoint: IC50 ; method: nucleotide incorporation ; strain or isolate: IIIB ; result: >200 µM
CCn1cnc2ncn([C@@H]3O[C@H](CO[Si](C)(C)C(C)(C)C)C4(OS(=O)(=O)C=C4N)[C@H]3O[Si](C)(C)C(C)(C)C)c2c1=O ; endpoint: IC50 ; method: ELISA ; result: <16 µM
O=[N+]([O-])c1ccc(CCNC(=S)Nc2ccc(Br)cn2)cc1 ; endpoint: Ki ; method: nucleotide incorporation ; result: 84 µM
CCN1c2ncc(C=O)cc2C(=O)N(C)c2ccc(Cl)nc21 ; endpoint: IC50 ; method: nucleotide incorporation / radiometric ; changes: RT-Y181C ; result: <1 µM
CCC1(c2ccc(COc3ccccc3Cl)cc2)Oc2ccccc2-n2cccc2C1=O ; endpoint: IC50 ; method: nucleotide incorporation / radiometric ; changes: RT-Y188L ; result: >10 µM
COc1cc(-c2ccccc2)c(OC)c(OC)c1O ; endpoint: IC50 ; method: RT activity / radiometric ; result: 202.5 µM
CCOc1ccccc1N1CCN(C(=O)c2cc3cc4c(cc3[nH]2)OCO4)CC1 ; endpoint: IC50 ; changes: RT-Y181C ; strain or isolate: IIIB ; result: >50 µM
CC(C)=CC[C@H]1C[C@]2(C[C@H]3CCC(C)(C)C=C3C)C(=O)C3=C(OC(C)(C)CC3)[C@@](C(=O)c3ccccc3)(C2=O)C1(C)C ; endpoint: IC50 ; method: RT activity / radiometric ; result: 126 µM
Cc1cc(Br)cc(S(=O)(=O)c2cccc(N)c2C#N)c1 ; endpoint: IC50 ; result: 0.007 µM
CCN1c2ncc(O)cc2C(=O)N(C)c2ccc(Cl)nc21 ; endpoint: IC50 ; method: nucleotide incorporation / radiometric ; changes: RT-Y181C ; result: >1 µM
CCCN(C)C(=O)Oc1nsnc1-c1c(Cl)cccc1Cl ; endpoint: IC50 ; method: nucleotide incorporation ; changes: RT-Y181C ; strain or isolate: IIIB-R (RT-Y181C) ; result: 111 µM
O=C1c2c(O)cc(O)cc2O[C@@H](c2ccc(O)cc2)[C@@H]1c1c(O)cc(O)c2c(=O)cc(-c3ccc(O)c(O)c3)oc12 ; endpoint: IC50 ; method: RT activity / radiometric ; result: 86.94 µM
O=C1CSC2(CCCCC2)N1c1ccccn1 ; endpoint: IC50 ; method: ELISA ; result: >10 µg/mL
CCC1(c2cccc(Cl)c2)Oc2ccccc2-n2cccc2C1=O ; endpoint: IC50 ; method: nucleotide incorporation / radiometric ; strain or isolate: WT ; result: 0.036 µM
Nc1ccn([C@H]2CS[C@@H](COP(=O)(O)OP(=O)(O)OP(=O)(O)O)O2)c(=O)n1 ; endpoint: Ki ; method: nucleotide incorporation ; strain or isolate: HXB2D ; result: 1.16 µM
CCC1(c2ccc(CCc3ccccc3)cc2)Oc2ccccc2-n2cccc2C1=O ; endpoint: IC50 ; method: nucleotide incorporation / radiometric ; changes: RT-V106A ; result: >10 µM
COc1ccc(C(C)=O)c(O)c1[C@H]1C[C@H]1NC(=S)Nc1ccc(Cl)cn1 ; endpoint: IC50 ; method: ELISA ; result: 0.17 µM
C=C/C=C(\C=C/Cc1c2nc(c(-c3ccc(S(=O)(=O)NCCN(CC)CC)cc3)c3ccc([n-]3)c(C/C=C\C(=C/C=C)S(=O)(=O)NCCN(CC)CC)c3ccc([n-]3)c(-c3ccc(S(=O)(=O)NCCN(CC)CC)cc3)c3nc1C=C3)C=C2)S(=O)(=O)NCCN(CC)CC.[O]=[V+2] ; endpoint: IC50 ; method: ELISA ; result: <50 µM
CCC1(c2ccc(COc3cccnc3)cc2)Oc2ccccc2-n2cccc2C1=O ; endpoint: IC50 ; method: nucleotide incorporation / radiometric ; changes: RT-V106A ; result: 2.5 µM
N#Cc1c(N)cccc1S(=O)(=O)c1cccc(Br)c1 ; endpoint: IC50 ; result: 12 µM
O=C1CCSC(c2c(F)cccc2F)N1Cc1ccco1 ; endpoint: IC50 ; method: ELISA ; result: <10 µg/mL
CCC1(c2cccc(I)c2)Oc2ccccc2-n2cccc2C1=O ; endpoint: IC50 ; method: nucleotide incorporation / radiometric ; changes: RT-V106A ; result: 0.13 µM
Cc1c([C@@H](C)c2c(F)cccc2F)nc(SC2CCCC2)[nH]c1=O ; endpoint: IC50 ; result: 30 µM
Cc1cn([C@H]2CC[C@@H](CC(F)(F)P(=O)(O)OP(=O)(O)OP(=O)(O)O)O2)c(=O)[nH]c1=O ; endpoint: IC50 ; method: fluorescence ; result: ~10 µM
CCN1c2ncc(COc3ccc4[nH]ccc4c3)cc2C(=O)N(C)c2ccc(Cl)nc21 ; endpoint: IC50 ; method: nucleotide incorporation / radiometric ; changes: RT-Y181C ; result: <1 µM
CCCCCCN(C)C(=O)Oc1nsnc1-c1c(Cl)cccc1Cl ; endpoint: IC50 ; method: nucleotide incorporation ; changes: RT-Y181C ; strain or isolate: IIIB-R (RT-Y181C) ; result: >200 µM
Cc1cn([C@H]2CC[C@@H](COP(=O)(O)OP(=O)(O)OP(=O)(O)O)[C@@H]2F)c(=O)[nH]c1=O ; endpoint: IC50 ; method: RT activity ; result: 16.5 µM
CC(C)=CCN1Cc2cccc3[nH]c(=S)n(c23)C[C@@H]1C ; endpoint: IC50 ; method: nucleotide incorporation / radiometric ; result: 0.5 µM
CN(C)C(=O)Oc1nsnc1-c1c(Cl)cccc1Cl ; endpoint: IC50 ; method: nucleotide incorporation ; strain or isolate: IIIB ; result: 5.1 µM
Cc1cn([C@H]2CC[C@@H](CC(F)(F)P(=O)(O)OP(=O)(O)C(F)(F)P(=O)(O)O)O2)c(=O)[nH]c1=O ; endpoint: IC50 ; method: fluorescence ; result: ~10 µM
Nc1ncnc2c1ncn2CCOCP(=O)(O)OP(=O)(O)OP(=O)(O)O ; endpoint: Ki ; method: nucleotide incorporation ; strain or isolate: HXB2D ; result: 0.07 µM
Cc1cn([C@H]2CC[C@@H](OCP(=O)(O)OP(=O)(O)OP(=O)(O)O)[C@@H]2F)c(=O)[nH]c1=O ; endpoint: IC50 ; method: RT activity ; result: 0.43 µM
N#Cc1c(N)cccc1S(=O)(=O)c1ccccc1F ; endpoint: IC50 ; result: >14 µM
CN(CCCNc1ccc2nnn3c4ccccc4c(=O)c1c23)CCCNc1ccc2nnn3c4ccccc4c(=O)c1c23 ; endpoint: IC50 ; result: >100 µM
CCC1(c2ccc(COc3cccc(Cl)c3)cc2)Oc2ccccc2-n2cccc2C1=O ; endpoint: IC50 ; method: nucleotide incorporation / radiometric ; changes: RT-Y181I ; result: >10 µM

The last 3 rows once more:

compound | endpoint | method | changes | strain or isolate | result
N#Cc1c(N)cccc1S(=O)(=O)c1ccccc1F | IC50 | - | - | - | >14 µM
CN(CCCNc1ccc2nnn3c4ccccc4c(=O)c1c23)CCCNc1ccc2nnn3c4ccccc4c(=O)c1c23 | IC50 | - | - | - | >100 µM
CCC1(c2ccc(COc3cccc(Cl)c3)cc2)Oc2ccccc2-n2cccc2C1=O | IC50 | nucleotide incorporation / radiometric | RT-Y181I | - | >10 µM